Anti-infective test results gathered from many reports (values: NIAID ChemDB through PubChem).

Shared fields: tests in culture; species: HIV-1; measure: EC50

An empty or dashed field is not shown. Neighbouring rows are from separate reports. ECn: concentration that inhibits the pathogen or its effect by n%.

compound | cells | method | setting | mutations | strain or isolate | result
COc1ccc(S(=O)(=O)N(CC[C@H](O)CN(CC(C)C)S(=O)(=O)c2ccc(OC)cc2)CC(C)C)cc1 | CEM | p24 | - | - | IIIB | <0.1 µM
Nc1ncnc2c1ccn2[C@H]1C=C[C@@H](CO)C1 | MT-4 | cytopathic effect / MTS | - | - | - | >200 µM
Cc1nc2ccccc2c(-c2cc(F)c3c(c2C)CCCO3)c1[C@H](OC(C)(C)C)C(=O)O | MT-4 | luminescence | - | Y143C | NL4-3 | 0.018 µM
CC(C)OC(=O)[C@H](C)NP(=O)(OC[C@H]1C=C[C@@H](n2cnc3c(N)ncnc32)C1)Oc1ccccc1 | MT-4 | cytopathic effect / MTS | - | - | - | 0.425 µM
COc1cc(Br)ccc1/C=C/c1cc(Cl)c2ccccc2n1 | TZM-bl | luminescence | - | - | VB59 | 27.49 µM
O=c1[nH]c(=O)n([C@H]2C=C[C@@H](CO)O2)cc1CO | MT-4 | RT activity | - | - | IIIB | 0.22 µM
CC(C)(C)C(=O)SCCOP(=O)(CO[C@@]1(C2CC2)C[C@@H](n2cnc3c(N)ncnc32)[C@H](O)[C@@H]1O)OCCSC(=O)C(C)(C)C | T4 | XTT / absorbance | - | - | - | 9.8 µM
CC(C)C1=C2[C@H]3CC[C@@H]4[C@@]5(C)CC[C@H](OC(=O)[C@H]6C[C@@H](C(=O)O)C6(C)C)C(C)(C)[C@@H]5CC[C@@]4(C)[C@]3(C)CC[C@@]2([C@@H](O)CNC(=O)C(C)(C)NC(=O)c2ccc3ccccc3n2)CC1=O | MT-2 | p24 / ELISA | - | - | 92HT599 | <1 µM
CC(C)C1=C2C(CC1=O)[C@@H](C(=O)NCCN1CCS(=O)(=O)CC1)C[C@@H]1[C@@H]2CC[C@@H]2C3[C@H](C)C=C(C4=CCC(C(=O)O)CC4)C(C)(C)[C@@H]3CC[C@]21C | MT-4 | MTS / propidium iodide | - | V370A | NL4-3 | >25 µM
COc1ccc(/C=C/c2cc(Cl)c3cc(Cl)ccc3n2)c(OC)c1 | TZM-bl | entry / luminescence | - | - | VB59 | 0.33 µM
COC(=O)[C@@H](NC(=O)c1ccccc1SSc1ccccc1C(=O)N[C@H](C(=O)OC)[C@H](C)O)[C@H](C)O | CEM | cytopathic effect / XTT | - | - | IIIB | 4.4 µM
CC(C)C1=C2C(CC1=O)[C@@H](C(=O)NCCN1CCC(S(C)(=O)=O)CC1)C[C@@H]1[C@@H]2CC[C@@H]2C3[C@H](C)C=C(C4=CCC(C(=O)O)CC4)C(C)(C)[C@@H]3CC[C@]21C | MT-4 | MTS / propidium iodide | - | - | NL4-3 | >23.9 µM
CC(C)C1=C2[C@H]3CC[C@@H]4[C@@]5(C)CC[C@H](OC(=O)[C@H]6C[C@@H](C(=O)O)C6(C)C)C(C)(C)[C@@H]5CC[C@@]4(C)[C@]3(C)CC[C@@]2([C@@H](O)CN(CCN(C)C)Cc2ccncn2)CC1=O | MT-2 | p24 / ELISA | - | - | 92HT599 | <1 µM
NC(N)=NCC(=O)NCCN1CCC(NC(=O)C(=O)Nc2ccc(Cl)cc2)CC12CCCCC2 | TZM-bl | single cycle | - | - | YTA | 2.6 µM
Cc1nc(CCCCCCC(=O)c2ccccc2)n2nc(NCCCCCCCCCCCCN)ccc12 | PBMC | RT activity | - | - | IIIB | >10 µM
CC(C)(C)NC(=O)N(Cc1ccccc1)CC(O)CN(CC1CCCC1)S(=O)(=O)c1ccccc1 | CEM | p24 | - | - | IIIB | <1 µM
O=C(Nc1ccc(Cl)cc1)C(=O)NC1CCN(Cc2ccccc2)C2(CCCCC2)C1 | TZM-bl | single cycle | - | - | YTA | >30 µM
COc1ncc(OC)c2c(C(=O)C(=O)N3CCC(=C(c4ccccc4)c4cnccn4)CC3)c[nH]c12 | HeLa | luciferase | - | - | - | <1 µM
Nc1nc(NC2CC2)c2ncn([C@H]3C=C[C@@H](CO)C3)c2n1 | H9 | GFP / reporter gene / fluorescence | pseudotyped | - | - | 0.029 µM
COC(=O)[C@H](Cc1ccccc1)NP(=O)(OC[C@@H]1C=C[C@H](n2ccc3c(N)ncnc32)C1)Oc1ccccc1 | MT-4 | cytopathic effect / MTS | - | - | - | 29 µM
COc1cccc2ccc(/C=C/C(=O)Nc3ccccc3F)nc12 | TZM-bl | entry / luminescence | - | - | - | 1.4 µM
Nc1ncnc2c1ccn2[C@@H]1CC[C@H](CO)C1 | MT-4 | cytopathic effect / MTS | - | - | - | >500 µM
Cc1cc(Cl)ccc1OCCNc1ccc(-c2cnc(C)c([C@H](OC(C)(C)C)C(=O)O)c2N2CCC(C)(C)CC2)cn1 | MT-2 | luminescence | - | - | NL4-3 | 0.002 µM
NCCCC[C@H](NC(=O)c1ccccc1SSc1ccccc1C(=O)N[C@@H](CCCCN)C(=O)O)C(=O)O | CEM | cytopathic effect / XTT | - | - | IIIB | >100 µM
COc1cc(Cl)ccc1OCCNc1ccc(-c2cnc(C)c([C@H](OC(C)(C)C)C(=O)O)c2N2CCC(C)(C)CC2)cn1 | MT-2 | luminescence | - | - | NL4-3 | 0.004 µM
Clc1ccc2nc(/C=C/c3ccc(N4CCCCC4)cc3)cc(Cl)c2c1 | TZM-bl | luminescence | - | - | UG070 | 94.44 µM
COc1ccc(OC)c2c(C(=O)C(=O)N3CCN(C(=O)c4ccccc4)CC3)c[nH]c12 | HeLa-CD4/CCR5 | single cycle | - | - | JR-FL | 0.0001 µM
COc1ncc(OC)c2c(C(=O)C(=O)N3CCC(=C(c4ccccc4)c4nnc(C)o4)CC3)c[nH]c12 | HeLa | luciferase | - | - | - | <1 µM
CC(C)C1=C2[C@H]3CC[C@@H]4[C@@]5(C)CC[C@H](OC(=O)[C@H]6C[C@@H](C(=O)O)C6(C)C)C(C)(C)[C@@H]5CC[C@@]4(C)[C@]3(C)CC[C@@]2([C@@H](O)CNCC(C)(C)NC(=O)c2cncnc2)CC1=O | MT-2 | p24 / ELISA | - | - | 92HT599 | <1 µM
Nc1ccc(S(=O)(=O)N(CC2CCCC2)C[C@@H](O)CN(CCc2ccccc2)C(=O)O[C@H]2CCOC2)cc1 | CEM | p24 | - | - | IIIB | <0.1 µM
COC(=O)[C@H](Cc1ccccc1)NP(=O)(OC[C@H]1C=C[C@@H](n2ccc3c(N)ncnc32)C1)Oc1ccccc1 | MT-4 | cytopathic effect / MTS | - | - | - | 0.3 µM
COc1cc(/C=C/c2cc(Cl)c3cc(Cl)ccc3n2)cc(OC)c1 | TZM-bl | luminescence | - | - | UG070 | 81.06 µM
Cc1nc(CCCCCCC(=O)c2ccccc2)n2nc(NCCCCCCN)ccc12 | CEM + CEM-SS | RT activity | - | - | LAI | 8.75 µM
Fc1ccc(/C=C/c2cc(Cl)c3ccccc3n2)cc1 | TZM-bl | luminescence | - | - | VB59 | 50.52 µM
Cc1cc(OCCNc2ccc(-c3cnc(C)c([C@H](OC(C)(C)C)C(=O)O)c3N3CCC(C)(C)CC3)nc2)ccc1F | MT-2 | luminescence | - | - | NL4-3 | 0.0016 µM
COC([C@@H]1OC[C@@](O)(CO)[C@H]1N=[N+]=[N-])n1cnc2c(N)ncnc21 | MT-4 | ELISA / antigen | - | - | IIIB | >300 µM
Nc1ncnc2c1ccn2[C@H]1CC[C@@H](CO)C1 | MT-4 | cytopathic effect / MTS | - | - | - | >500 µM
CC(C)C[C@H](NC(=O)c1ccccc1SSc1ccccc1C(=O)N[C@@H](CC(C)C)C(N)=O)C(N)=O | CEM | cytopathic effect / XTT | - | - | IIIB | 6.5 µM
N#CC(=C1CCN(C(=O)C(=O)c2c[nH]c3c(-n4ccnn4)ncc(F)c23)CC1)c1ccccc1 | HeLa | luciferase | - | - | - | <1 µM
CCOCc1cn([C@H]2C=C[C@@H](CO)O2)c(=O)[nH]c1=O | PBMC | RT activity | - | - | IIIB | 1.85 µM
NCCCCC(=O)NCCN1CCC(NC(=O)C(=O)Nc2ccc(Cl)cc2)CC12CCCCC2 | TZM-bl | single cycle | - | - | YTA | 14 µM
Cc1nc(CCCCCCC(=O)c2ccccc2)n2nc(NCCCCCCCCCCN)ccc12 | PBMC | RT activity | - | - | IIIB | >10 µM
N=C1Sc2ccccc2C2=NCCCN12 | TZM-bl | β-galactosidase | - | - | 92UG024 | 0.33 µM
CC(=O)c1c(C)nc(-c2ccccc2)nc1NC(=O)c1ccccc1 | HeLa | GFP / fluorescence | - | - | 83-2/B1-T20r | 0.04 µM
Nc1ncnc2c1ncn2[C@H]1C=C[C@](OCP(=O)(O)O)(C2CC2)C1 | T4 | XTT / absorbance | - | - | - | 18.6 µM
CC(C)C1=C2[C@H]3CC[C@@H]4[C@@]5(C)CC[C@H](OC(=O)[C@H]6C[C@@H](C(=O)O)C6(C)C)C(C)(C)[C@@H]5CC[C@@]4(C)[C@]3(C)CC[C@@]2(CCNCC2(N)CCCCC2)CC1=O | MT-2 | p24 / ELISA | - | - | 92HT599 | <1 µM
COc1ncc(OC)c2c(C(=O)C(=O)N3CCC(=C(C#N)c4nc5ccccc5s4)CC3)c[nH]c12 | HeLa | luciferase | - | - | - | >5 µM
CO[C@H]([C@@H]1OC[C@@](O)(CO)[C@H]1N=[N+]=[N-])n1cc(C)c(=O)[nH]c1=O | MT-4 | ELISA / antigen | - | - | IIIB | >300 µM
CCOCCOc1ccc(-c2cnc(C)c([C@H](OC(C)(C)C)C(=O)O)c2N2CCC(C)(C)CC2)nc1 | MT-2 | luminescence | - | - | NL4-3 | 0.0033 µM
Cc1nc(CCCCCCC(=O)c2ccccc2)n2nc(NCCCCCCNCc3cn([C@H]4C=C[C@@H](CO)O4)c(=O)[nH]c3=O)ccc12 | CEM + CEM TK- | RT activity | - | - | LAI | 9 µM
CC[C@@H](C)[C@@H](NC(=O)c1ccccc1SSc1ccccc1C(=O)N[C@@H](C(=O)O)[C@H](C)CC)C(=O)O | CEM | cytopathic effect / XTT | - | - | IIIB | 6.3 µM
CN1c2ccccc2C2C1C=C(C#N)C(=O)N2c1ccc([N+](=O)[O-])cc1 | HeLa | GFP / fluorescence | - | - | AE-CMU06 | 0.07 µM
O=C(c1ccccc1)N(CCc1ccccc1)C[C@H](O)CN(CC1CCCC1)S(=O)(=O)C1CCCCC1 | CEM | p24 | - | - | IIIB | <1 µM
C=CCOC(=O)[C@H](CC(C)C)NC(=O)c1ccccc1SSc1ccccc1C(=O)N[C@@H](CC(C)C)C(=O)OCC=C | CEM | cytopathic effect / XTT | - | - | IIIB | 25 µM
Cc1ncc(-c2ccc(N(C)CCOc3ccc(Cl)cc3)nc2)c(N2CCC(C)(C)CC2)c1[C@H](OC(C)(C)C)C(=O)O | MT-2 | luminescence | - | - | NL4-3 | 0.004 µM
COc1ccc(S(=O)(=O)N(CC(C)C)C[C@@H](O)CCN(CC2CCCC2)S(=O)(=O)c2ccccc2)cc1 | CEM | p24 | - | - | IIIB | <1 µM
COc1cnc(-c2cnccn2)c2[nH]cc(C(=O)C(=O)N3CCC(=C(C#N)c4ccccc4)CC3)c12 | HeLa | luciferase | - | - | - | <1 µM
Cc1ccc(OCCNc2ccc(-c3cnc(C)c([C@H](OC(C)(C)C)C(=O)O)c3N3CCC(C)(C)CC3)nc2)cc1 | MT-2 | luminescence | - | - | NL4-3 | 0.0008 µM
CC(C)C1=C2[C@H]3CC[C@@H]4[C@@]5(C)CC[C@H](OC(=O)[C@H]6C[C@@H](C(=O)O)C6(C)C)C(C)(C)[C@@H]5CC[C@@]4(C)[C@]3(C)CC[C@@]2([C@@H](O)CNC(=O)[C@H](C)NC(=O)c2ccc(Cl)cc2)CC1=O | MT-2 | p24 / ELISA | - | - | 92HT599 | <1 µM
Cc1ncc(-c2ccc(OCCN3CCCCC3)cn2)c(N2CCC(C)(C)CC2)c1[C@H](OC(C)(C)C)C(=O)O | MT-2 | luminescence | - | - | NL4-3 | 0.0715 µM
COc1ccc(/C=C/c2cc(Cl)c3ccccc3n2)c(OC)c1 | TZM-bl | entry / luminescence | - | - | VB59 | 4.21 µM
CC1(C)CC(NC(=O)C(=O)Nc2ccc(Cl)cc2)CC(C)(C)N1 | TZM-bl | single cycle | - | - | YTA | 8.1 µM
COc1ncc(OC)c2c(C(=O)C(=O)N3CCC(=C(Cl)c4ccccc4)CC3)c[nH]c12 | HeLa | luciferase | - | - | - | <1 µM
CC1(C)CC=C(c2cn(-c3nccc(C(=O)NC4CCC(N5CC6CCC(C5)O6)CC4)n3)c3ccc(F)c([C@H](OC(C)(C)C)C(=O)O)c23)CC1 | MT-4 | luminescence | - | - | NL4-3 | 0.0058 µM
CC(C)C1=C2[C@H]3CC[C@@H]4[C@@]5(C)CC[C@H](OC(=O)[C@H]6C[C@@H](C(=O)O)C6(C)C)C(C)(C)[C@@H]5CC[C@@]4(C)[C@]3(C)CC[C@@]2([C@@H](O)CNC(=O)C2(N)COC2)CC1=O | MT-2 | p24 / ELISA | - | - | 92HT599 | <1 µM
CCCN(CC(=O)c1ccccc1)C[C@H](O)CN(CC1CCCC1)S(=O)(=O)c1ccc(OC)cc1 | CEM | p24 | - | - | IIIB | <1 µM

For reference, 4 entries again:

compound,cells,method,setting,mutations,strain or isolate,result
CC(C)C1=C2[C@H]3CC[C@@H]4[C@@]5(C)CC[C@H](OC(=O)[C@H]6C[C@@H](C(=O)O)C6(C)C)C(C)(C)[C@@H]5CC[C@@]4(C)[C@]3(C)CC[C@@]2([C@@H](O)CNC(=O)[C@H](C)NC(=O)c2ccc(Cl)cc2)CC1=O,MT-2,p24 / ELISA,-,-,92HT599,<1 µM
COc1cc(Br)ccc1/C=C/c1cc(Cl)c2ccccc2n1,TZM-bl,luminescence,-,-,VB59,27.49 µM
Cc1nc(CCCCCCC(=O)c2ccccc2)n2nc(NCCCCCCCCCCN)ccc12,PBMC,RT activity,-,-,IIIB,>10 µM
COc1ccc(OC)c2c(C(=O)C(=O)N3CCN(C(=O)c4ccccc4)CC3)c[nH]c12,HeLa-CD4/CCR5,single cycle,-,-,JR-FL,0.0001 µM